Experimental data: US20210363204A1

What was measured:
Assay in all cases: cell-based or functional assay
[1] = molecular target: human Nav1.5 (human), Q14524
[2] = molecular target: human Nav1.7 (sodium channel protein type 9 subunit alpha) (human), Q15858
[3] = molecular target: human Nav1.7 (human), Q15858
[4] = molecular target: human Nav1.6 (human), Q9UQD0
[5] = molecular target: human Nav1.4 (human), P35499
[6] = molecular target: human Nav1.2 (human), Q99250
[7] = molecular target: human Nav1.1 (human), P35498

Binder	hNav1.5 QPatch IC50 [1] [nM]	hNav1.7 QPatch % blk at 10 nM [3] [%]	hNav1.7 QPatch IC50 [3] [nM]	Nav1.4 IC50, QPatch [5] [nM]	Nav1.2 IC50, QPatch [6] [nM]	also measured
GPACQKWMQTCDAERKCCEGFVCRLWCKKKLW (modifications not checked) [Protoxin-II variant NV1D2774]	> 3000	–	–	–	–	–
GPQCQKWMQTCDAERKCCEGFVCRLWCKKKLW (modifications not checked) [Protoxin-II variant NV1D2775]	> 3000	–	–	–	–	–
GPRCQKWMQTCDAERKCCEGFVCRLWCKKKLW (modifications not checked) [Protoxin-II variant NV1D2772]	> 3000	–	–	–	–	hNav1.7 QPatch IC50 [2]: 6.2 nM
GPSCQKWMQTCDAERKCCEGFVCRLWCKKKLW (modifications not checked) [Protoxin-II variant NV1D2773]	> 3000	–	–	–	–	–
GPQCQKWMQTCDRERKCCEGFVCTLWCRKKLW (modifications not checked) [Protoxin-II variant NV1D3034]	> 1000	–	–	–	–	–
GPYCQKWMWTCDSERKCCEGMVCRLWCKKKLL (modifications not checked) [NV1G2232]	–	56.5	5	–	–	hNav1.7 TETRA IC50 [3]: 16.7 nM; Nav1.6 IC50, QPatch [4]: 563 nM
GPYCQKWMWTCDSERKCCEGMVCRLWCKKKLF (modifications not checked) [NV1G2182]	–	54.2	3.8	732	240	Nav1.6 IC50, QPatch [4]: 253 nM
GPYCQKWMQTCDSERKCCEGMVCRLWCKKKLW (modifications not checked) [63930841]	–	–	20.9	543	–	–
YCQKWMQTCDAERKCCEGFSCRLWCKKKLL (modifications not checked) [64087946]	–	20.7	–	2590	–	–
GPYCQKWMQTCDSERKCCEGMVCRLWCKKKLL (modifications not checked) [63955918]	–	38.5	10.8	–	1950	Nav1.6 IC50, QPatch [4]: 1990 nM
YCQKWMQTCDSERKCCEGMVCRLWCKKKLW (modifications not checked) [64087907]	–	45.1	7.1	1460	–	–
YCQKWMQTCDSERKCCEGMVCRLWCKKKLL (modifications not checked) [64032488]	–	45.6	6.5	–	1340	Nav1.6 IC50, QPatch [4]: 1840 nM
GPYCQKWMQTCDVERKCCEGMVCRLWCKKKLL (modifications not checked) [64053301]	–	45.8	10.7	2240	19400	Nav1.1 IC50, QPatch [7]: 15300 nM
GPYCQKWMQTCDSERKCCLGMVCRLWCKKKLL (modifications not checked) [64053275]	–	48.2	2.9	2220	137	Nav1.1 IC50, QPatch [7]: 3870 nM
YCQKWMQTCDSERKCCNGMVCRLWCKKKLL (modifications not checked) [64053327]	–	51.9	7.9	3870	6660	Nav1.1 IC50, QPatch [7]: 6390 nM
